{"source": "PubChem BioAssay AID1259414 (Drosophila RNAi Screening Center, 2018)", "aim": "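Host factors increasing or decreasing Wolbachia levels in cultured fly cells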 (primary screen)", "cells": "Drosophila JW18 cells infected with Wolbachia", "reagent": "long dsRNA against Drosophila genes, 0.25 µg dsRNA per well of a 384-well plate", "time to read-out": "5 days", "conditions": "cells persistently infected with Wolbachia before knock-down; no added drug", "measurement": "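Automated imaging of bacterial rRNA staining divided by host cell count, reported as plate-normalised robust z-score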", "direction": "Wolbachia per cell robust z: higher = more Wolbachia per host cell than the plate typical", "call rule": "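Hit when robust z is 1.5 or more, or -1.5 or less, in at least two of three replicates; excludes dsRNAs with several or no targets, genes not expressed in JW18 and well A1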", "note": "The screen tested about 24,000 reagents; below is a random part of those that have a named target and a result. Of all reagents, about 1,210 (5%) are marked active. 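Inactive calls also include excluded dsRNAs with several or no targets, genes unexpressed in JW18, and well A1, regardless of score.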 Entries without a mark were called inactive. Reagents against one gene are numbered here. A plus sign joins genes that one reagent is predicted to hit."}
{"gene":"CG13793","reagent no.":1,"Wolbachia per cell robust z, rep 1":-0.221,"Wolbachia per cell robust z, rep 2":0.487,"Wolbachia per cell robust z, rep 3":-4.93}
{"gene":"CG13793","reagent no.":2,"Wolbachia per cell robust z, rep 1":1.44,"Wolbachia per cell robust z, rep 2":-0.0502,"Wolbachia per cell robust z, rep 3":0.945}
{"gene":"CG30080 + CG42662","reagent no.":1,"Wolbachia per cell robust z, rep 1":-0.0744,"Wolbachia per cell robust z, rep 2":0.326,"Wolbachia per cell robust z, rep 3":0.368}
{"gene":"CG11475","reagent no.":1,"Wolbachia per cell robust z, rep 1":-1.85,"Wolbachia per cell robust z, rep 2":-1.14,"Wolbachia per cell robust z, rep 3":0.332}
{"gene":"CG11475","reagent no.":2,"Wolbachia per cell robust z, rep 1":-5.88,"Wolbachia per cell robust z, rep 2":-0.138,"Wolbachia per cell robust z, rep 3":0.498}
{"gene":"CG10903","reagent no.":1,"Wolbachia per cell robust z, rep 1":0.839,"Wolbachia per cell robust z, rep 2":-0.938,"Wolbachia per cell robust z, rep 3":0.754}
{"gene":"Sfp33A1","reagent no.":1,"Wolbachia per cell robust z, rep 1":0.108,"Wolbachia per cell robust z, rep 2":-1.45,"Wolbachia per cell robust z, rep 3":1.62}
{"gene":"Dscam4","reagent no.":1,"Wolbachia per cell robust z, rep 1":-1.74,"Wolbachia per cell robust z, rep 2":-4.93,"Wolbachia per cell robust z, rep 3":-0.437}
{"gene":"Dscam4","reagent no.":2,"Wolbachia per cell robust z, rep 1":0.0269,"Wolbachia per cell robust z, rep 2":-0.26,"Wolbachia per cell robust z, rep 3":-0.277}
{"gene":"Dscam4","reagent no.":3,"Wolbachia per cell robust z, rep 1":0.242,"Wolbachia per cell robust z, rep 2":0.126,"Wolbachia per cell robust z, rep 3":-7.55}
{"gene":"Dscam4","reagent no.":4,"Wolbachia per cell robust z, rep 1":-0.862,"Wolbachia per cell robust z, rep 2":-0.419,"Wolbachia per cell robust z, rep 3":0.4}
{"gene":"Dscam4","reagent no.":5,"Wolbachia per cell robust z, rep 1":0.669,"Wolbachia per cell robust z, rep 2":0.87,"Wolbachia per cell robust z, rep 3":0.47}
{"gene":"CG7156","reagent no.":1,"Wolbachia per cell robust z, rep 1":-0.297,"Wolbachia per cell robust z, rep 2":-0.411,"Wolbachia per cell robust z, rep 3":-0.396}
{"gene":"CG7156","reagent no.":2,"Wolbachia per cell robust z, rep 1":1.63,"Wolbachia per cell robust z, rep 2":-0.481,"Wolbachia per cell robust z, rep 3":0.653}
{"gene":"drongo","reagent no.":1,"Wolbachia per cell robust z, rep 1":0.403,"Wolbachia per cell robust z, rep 2":0.324,"Wolbachia per cell robust z, rep 3":0.0485}
{"gene":"drongo","reagent no.":2,"Wolbachia per cell robust z, rep 1":0.462,"Wolbachia per cell robust z, rep 2":-1.23,"Wolbachia per cell robust z, rep 3":-0.314}
{"gene":"RpL41","reagent no.":1,"Wolbachia per cell robust z, rep 1":1.16,"Wolbachia per cell robust z, rep 2":-0.456,"Wolbachia per cell robust z, rep 3":-0.792}
{"gene":"Sgs7","reagent no.":1,"Wolbachia per cell robust z, rep 1":-2.12,"Wolbachia per cell robust z, rep 2":0.849,"Wolbachia per cell robust z, rep 3":0.887}
{"gene":"Zip71B","reagent no.":1,"Wolbachia per cell robust z, rep 1":1.1,"Wolbachia per cell robust z, rep 2":0.609,"Wolbachia per cell robust z, rep 3":1.11}
{"gene":"Zip71B","reagent no.":2,"Wolbachia per cell robust z, rep 1":0.264,"Wolbachia per cell robust z, rep 2":-0.122,"Wolbachia per cell robust z, rep 3":-0.483}
{"gene":"Obp69a","reagent no.":1,"Wolbachia per cell robust z, rep 1":"-4.12 (active)","Wolbachia per cell robust z, rep 2":-1.69,"Wolbachia per cell robust z, rep 3":-3.37}
{"gene":"Obp69a","reagent no.":2,"Wolbachia per cell robust z, rep 1":"0.0283 (active)","Wolbachia per cell robust z, rep 2":-2.32,"Wolbachia per cell robust z, rep 3":-1.63}
{"gene":"Svip","reagent no.":1,"Wolbachia per cell robust z, rep 1":0.757,"Wolbachia per cell robust z, rep 2":0.684,"Wolbachia per cell robust z, rep 3":0.295}
{"gene":"Svip","reagent no.":2,"Wolbachia per cell robust z, rep 1":0.792,"Wolbachia per cell robust z, rep 2":1.44,"Wolbachia per cell robust z, rep 3":0.663}

As entered above:
For “Wolbachia per cell robust z, rep 3”, CG7156 #1 reads -0.396
Under “Wolbachia per cell robust z, rep 3”, Dscam4 #5 is entered as 0.47
CG13793 #1, Wolbachia per cell robust z, rep 3 → -4.93
For “Wolbachia per cell robust z, rep 2”, Zip71B #2 is entered as -0.122
